Anti-infective test results gathered from many reports (values: NIAID ChemDB through PubChem).

Common to all: growth or infection tests; organism: Epstein-Barr virus

An empty or dashed field is not shown. Rows are shuffled and stem from different studies. ECn is the concentration giving n% inhibition of infection, replication or growth.

SMILES	strain or isolate	measure	method	cells	value
O=c1[nH]c(=O)n([C@@H]2O[C@H](CO)[C@@H](O)[C@@H]2O)cc1/C=C/Br		EC50	cytopathic effect	P3HR-1	0.26 µM
Nc1ncnc2c1ncn2[C@@H]1C[C@H](NC=O)[C@@H](O)[C@H]1O		EC50		HFF	>100 µg/mL
Nc1nc2c(ncn2COCCO)c(=O)[nH]1		EC90		H-1	50 µM
COC(c1cn([C@H]2C[C@H](O)[C@@H](CO)O2)c(=O)[nH]c1=O)C(Br)I	P3HR-1	EC50	plaque count	RAJI	3 µM
Cn1cc(C(=O)NCc2ccc(Cl)cc2)c(=O)c2cc(CN3CCOCC3)ccc21		EC50	hybridisation	DAUDI	2.6 µM
Nc1nc2c(ncn2/C=C2\CC2[C@H](O)CO)c(=O)[nH]1		EC50	hybridisation	Akata	>20 µM
Nc1ncnc2c1ncn2[C@H]1C[C@@]12C[C@@H]2CO		EC50	ELISA	DAUDI	>216 µM
Nc1nc2c(ncn2COCCO)c(=O)[nH]1		EC50	ELISA	DAUDI	9.3 µM
COC(c1cn([C@H]2C[C@H](O)[C@@H](CO)O2)c(=O)[nH]c1=O)C(Cl)Br	P3HR-1	EC50	plaque count	RAJI	>25 µM
Nc1nc2c(ncn2COCCO)c(=O)[nH]1		EC50		H-1	50 µM
Nc1nc2ncn(/C=C3/C(F)C3(CO)CO)c2c(=O)[nH]1		EC50	hybridisation	Akata	>100 µM
Nc1ncnc2c1ncn2[C@H]1C[C@@]12C[C@H]2CO		EC50	ELISA	DAUDI	153 µM
COC(=O)C(C)NP(=O)(OC[C@@H]1C/C1=C\n1cc(N)c(=O)[nH]c1=O)Oc1ccccc1		EC50	hybridisation	H-1	12 µM
O=c1[nH]c(=O)n([C@H]2C[C@H](O)[C@@H](CO)O2)cc1C(O)C(Br)Br	P3HR-1	EC50	plaque count	RAJI	>23 µM
CCCCCCCC/C=C\CCCCCCCOCCCOP1(=O)CO[C@@H](Cn2ccc(N)nc2=O)CO1		EC50	hybridisation	DAUDI	0.4 µM
CCCCCCOc1nc(N)nc2c1ncn2/C=C1/C[C@@H]1CO		EC50	hybridisation	Akata	1.3 µM
COC(c1cn([C@H]2C[C@H](O)[C@@H](CO)O2)c(=O)[nH]c1=O)C(Br)Br	P3HR-1	EC50	plaque count	RAJI	>22.5 µM
COc1cc(OC)c(C(=O)/C=C/c2ccc(O)cc2)c(OC)c1		EC50	hybridisation	Akata	18 µM
Nc1ncc2c(ncn2/C=C2/CC2CO)n1		EC50	ELISA		>100 µM
Nc1ncnc2c1ncn2/C=C1/CC1(CO)CO		EC50	hybridisation	H-1	7 µM
CCCCCCCCCCCCCCCCOP1(=O)CO[C@@H](Cn2ccc(N)nc2=O)CO1		EC50	hybridisation	DAUDI	>1 µM
CC(C)COc1nc(N)nc2c1ncn2/C=C1/C[C@@H]1CO		EC50	hybridisation	Akata	3.4 µM
CN1CCN(n2cc(C(=O)NCc3ccc(Cl)cc3)c(=O)c3cc(CN4CCOCC4)ccc32)CC1		EC50	plaque count	HFF	0.11 µM
Nc1nc2c(ncn2C/C=C2\CC2P(=O)(O)O)c(=O)[nH]1		EC50		DAUDI	<0.03 µM
CCCCCOc1nc(N)nc2c1ncn2/C=C1/C[C@@H]1CO		EC50	hybridisation	Akata	0.8 µM
Nc1nc2c(ncn2[C@H]2C[C@@H](O)[C@H](O)[C@@H]2O)c(=O)[nH]1		EC50	ELISA	DAUDI	>50 µg/mL
COC(C)c1cn([C@H]2C[C@H](O)[C@@H](CO)O2)c(=O)[nH]c1=O	P3HR-1	EC50	cytopathic effect	HFF	12.1 µM
CCCCCCCCCCCCCCCCCCOCCCOP1(=O)CO[C@@H](Cn2ccc(N)nc2=O)CO1		EC50	hybridisation	DAUDI	>1 µM
Nc1ncnc2c1ncn2[C@H]1C[C@]12C[C@@H]2CO		EC50	ELISA	DAUDI	4.8 µM
CCCOc1nc(N)nc2c1ncn2/C=C1/C[C@@H]1CO		EC50	hybridisation	Akata	0.6 µM
CC(C)Nc1nc2cc(Cl)c(Cl)cc2n1[C@H]1O[C@@H](CO)[C@H](O)[C@@H]1O		EC50	ELISA	DAUDI	4.3 µM
Nc1cn(/C=C2/C[C@H]2CO)c(=O)[nH]c1=O		EC50	ELISA	DAUDI	<0.41 µM
O=C(NCc1ccc(Cl)cc1)c1cn2c3c(cc(CN4CCOCC4)cc3c1=O)OC(c1cccnc1)C2		EC50	ELISA	DAUDI	3.4 µM
O=c1[nH]c(=O)n([C@H]2C[C@H](O)[C@@H](CO)O2)cc1C(O)C(Br)I	P3HR-1	EC50	plaque count	RAJI	79.6 µM
Nc1nc2c(ncn2COC(CO)CO)c(=O)[nH]1		EC50		H-1	<5 µM
Nc1ncc2c(ncn2/C=C2\CC2CO)n1		EC50	ELISA		>100 µM
O=c1[nH]c(=O)n([C@@H]2CO[C@H](CO)O2)cc1Cl		EC50		H-1	0.6 µM
COC(=O)[C@H](C)NP(=O)(OC[C@@H]1C[C@]12C[C@@H]2n1cnc2c(N)ncnc21)Oc1ccccc1		EC50			2.8 µM
Nc1nc2c(ncn2/C=C2/CC2[C@@H](O)CO)c(=O)[nH]1		EC50	hybridisation	Akata	>20 µM
CCCCOc1nc(N)nc2c1ncn2/C=C1/C[C@@H]1CO		EC50	hybridisation	Akata	6.6 µM
Nc1nc(N)c2ncn(/C=C3\CC3(CO)CO)c2n1		EC50	ELISA	P3HR-1	<0.3 µM
CCOc1nc(N)nc2c1ncn2/C=C1/C[C@@H]1CO		EC50	hybridisation	Akata	<0.16 µM
Nc1nc2c(ncn2C=C2CC2CO)c(=O)[nH]1		EC50	ELISA	H-1	50 µM
Nc1nc(NC2CC2)c2ncn(C=C3CC3CO)c2n1		EC50		DAUDI	1.7 µM
COC(=O)C(C)NP(=O)(OC[C@@H]1C/C1=C/n1cc(C)c(=O)[nH]c1=O)Oc1ccccc1		EC50	ELISA	DAUDI	>100 µM
Nc1nc(Cl)c2ncn(/C=C3/C[C@H]3CO)c2n1		EC50	ELISA	DAUDI	1.2 µM

A second listing of 5 rows from above:

| SMILES | strain or isolate | measure | method | cells | value |
|---|---|---|---|---|---|
| Nc1nc2c(ncn2COCCO)c(=O)[nH]1 |  | EC90 |  | H-1 | 50 µM |
| COC(=O)C(C)NP(=O)(OC[C@@H]1C/C1=C/n1cc(C)c(=O)[nH]c1=O)Oc1ccccc1 |  | EC50 | ELISA | DAUDI | >100 µM |
| CCCCCCCC/C=C\CCCCCCCOCCCOP1(=O)CO[C@@H](Cn2ccc(N)nc2=O)CO1 |  | EC50 | hybridisation | DAUDI | 0.4 µM |
| Nc1nc2c(ncn2C=C2CC2CO)c(=O)[nH]1 |  | EC50 | ELISA | H-1 | 50 µM |
| CCOc1nc(N)nc2c1ncn2/C=C1/C[C@@H]1CO |  | EC50 | hybridisation | Akata | <0.16 µM |